Measured values taken from US20230130925A1 (priority 2020, published 2023).
Numbering of substitutions follows the chain as printed.

B1: Ecoluzimab: C5 inhibitor; inhibitor of terminal complement 5 (antibody, chains of the INN, looked up)
heavy: QVQLVQSGAEVKKPGASVKVSCKASGYIFSNYWIQWVRQAPGQGLEWMGEILPGSGSTEYTENFKDRVTMTRDTSTSTVYMELSSLRSEDTAVYYCARYFFGSSPNWYFDVWGQGTLVTVSSASTKGPSVFPLAPCSRSTSESTAALGCLVKDYFPEPVTVSWNSGALTSGVHTFPAVLQSSGLYSLSSVVTVPSSNFGTQTYTCNVDHKPSNTKVDKTVERKCCVECPPCPAPPVAGPSVFLFPPKPKDTLMISRTPEVTCVVVDVSQEDPEVQFNWYVDGVEVHNAKTKPREEQFNSTYRVVSVLTVLHQDWLNGKEYKCKVSNKGLPSSIEKTISKAKGQPREPQVYTLPPSQEEMTKNQVSLTCLVKGFYPSDIAVEWESNGQPENNYKTTPPVLDSDGSFFLYSRLTVDKSRWQEGNVFSCSVMHEALHNHYTQKSLSLSLG
light: DIQMTQSPSSLSASVGDRVTITCGASENIYGALNWYQQKPGKAPKLLIYGATNLADGVPSRFSGSGSGTDFTLTISSLQPEDFATYYCQNVLNTPLTFGQGTKVEIKRTVAAPSVFIFPPSDEQLKSGTASVVCLLNNFYPREAKVQWKVDNALQSGNSQESVTEQDSKDSTYSLSSTLTLSKADYEKHKVYACEVTHQGLSSPVTKSFNRGEC
B2: Ravulizumab: C5-Inhibitor (antibody, chains of the INN, looked up)
heavy: B1 heavy with Y27H, S57H, M429L, N435S
light: B1 light

Tests used:
[1] = test system: Influenza A; details: person, after Tocilizumab; 900 mg intravenously on day 6
[2] = test system: SARS-cov2; details: person, deterioration after Tocilizumab; Ravulizumab 3000 mg i.v.

| Molecule | mental function [1] | mental function [2] |
| --- | --- | --- |
| B1 | gradual improvement in mental function | – |
| B2 | – | gradual improvement in mental function |
